PSTVd loop 6 mutant pool in Nicotiana benthamiana

Values reported by Wu et al. 2024 (doi:10.1371/journal.ppat.1012142).

Region: loop 6 of PSTVd (intermediate strain), upper and lower strand joined, each 5' to 3', the first 5 letters being the upper strand, closing pairs included. Wild type: UGACCGCGAG. Varied positions (N): UNNNCGNNNG.

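A pool of all variants was put on leaves of three Nicotiana benthamiana plants. Progeny were sequenced from the inoculated region (day 5), the margin of the inoculated leaf (day 10) and systemic leaves (day 12).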

Values are reads per thousand in the sample; higher means more abundant, 0 means not found.
Each value is the mean of three plants.
"Pool" is the share in the plasmid pool used as inoculum, on the same scale.
The inoculated region was read from the minus strand, the other sites from the plus strand.
Wild type was 20.7 per thousand in the pool and the most common sequence in every sample (inoculated region 195, 198, 203; leaf margin 629, 591, 734; systemic leaves 942, 870, 868).
With 36,220-57,551 reads a sample, very low values are single reads.
Sequences that differ at fixed positions probably stem from PCR or sequencing errors, and defective variants can be carried along by functional ones.

| sequence | pool | inoculated region | leaf margin | systemic leaves |
|---|---|---|---|---|
| UGGACGGGGG | 0.157 | 0.0894 | 0.00920 | 0 |
| UAAUCGGCAG | 0.301 | 0.608 | 0.104 | 0 |
| UUUUCGGUGG | 0.170 | 0.113 | 0 | 0 |
| UGAGCGAAGG | 0.0915 | 0.0898 | 0.00773 | 0 |
| UUUUCGACGG | 0.275 | 0.100 | 0 | 0 |
| UUGGCGUCUG | 0.484 | 0.107 | 0.0155 | 0 |
| UAGUCGCAAG | 0.0915 | 0.144 | 0.00773 | 0 |
| UGGGCGUCGG | 0.248 | 0.0355 | 0 | 0 |
| UACCCGAACG | 0.288 | 0.0714 | 0 | 0 |
| UUGUCGUAGG | 0.301 | 0.0656 | 0.00920 | 0 |
| UUAGCGACAG | 0.484 | 0.107 | 0 | 0.00684 |
| UAGUCGAUCG | 0.209 | 0.0878 | 0.0247 | 0 |
| UGGUCGGUCG | 0.314 | 0.0835 | 0 | 0 |
| UUCUCGCGAG | 0.366 | 0.375 | 0.670 | 0.0536 |
| UCAACGGUAG | 0.144 | 0.707 | 0.0683 | 0 |
| UUCUCGGUUG | 0.235 | 0.0903 | 0 | 0.00673 |
| UUCACGGAGG | 0.235 | 0.107 | 0.00773 | 0 |
| UCUUCGUUGG | 0.340 | 0.126 | 0.00841 | 0 |
| UGACCGCCCG | 0.392 | 0.197 | 0.169 | 0.236 |
| UUUUCGACUG | 0.248 | 0.101 | 0.0169 | 0 |
| UCCCCGUGUG | 0.288 | 0.0956 | 0.0176 | 0 |
| UCUCCGAGCG | 0.131 | 0.0833 | 0 | 0 |
| UAAUCGUAGG | 0.235 | 0.107 | 0 | 0 |
| UAGUCGCAGG | 0.275 | 0.106 | 0 | 0 |
| UAGGCGCCUG | 0.248 | 0.0715 | 0 | 0 |
| UAUACGGCAG | 0.314 | 0.705 | 0.0460 | 0 |
| UUAUCGUUUG | 0.327 | 0.0766 | 0 | 0 |
| UUGUCGUCCG | 0.288 | 0.155 | 0.00773 | 0 |
| UGAGCGAGAG | 0.144 | 0.625 | 0.0500 | 0 |
| UGAGCGAUAG | 0.340 | 0.131 | 0.0387 | 0 |
| UAUGCGCUGG | 0.183 | 0.0886 | 0.00773 | 0 |
| UUUACGACUG | 0.327 | 0.0654 | 0 | 0 |
| UUACCGACUG | 0.301 | 0.138 | 0.00920 | 0 |
| UCUGCGGUAG | 0.314 | 0.107 | 0 | 0 |
| UAGGCGACCG | 0.170 | 0.0892 | 0 | 0 |
| UAUUCGAAAG | 0.288 | 0.101 | 0.00773 | 0 |
| UACUCGUUUU | 0.0131 | 0 | 0 | 0 |
| UCUUCGUAAG | 0.275 | 0.0715 | 0.00920 | 0 |
| UGAGCGGUUG | 0.314 | 0.132 | 0 | 0.0535 |
| UGUGCGGACG | 0.327 | 0.102 | 0 | 0 |
| UAAUCGUGGG | 0.157 | 0.113 | 0.00773 | 0 |
| UUUUCGCGAG | 0.0523 | 0.0712 | 0.0445 | 0 |
| UUCGCGGAGU | 0.0131 | 0 | 0 | 0 |
| UCAUCGUUAG | 0.431 | 0.0965 | 0.0155 | 0 |

Excerpt, the final 3 entries:

{"sequence": "UUUUCGCGAG", "pool": "0.0523", "inoculated region": 0.0712, "leaf margin": 0.0445, "systemic leaves": 0}
{"sequence": "UUCGCGGAGU", "pool": "0.0131", "inoculated region": 0, "leaf margin": 0, "systemic leaves": 0}
{"sequence": "UCAUCGUUAG", "pool": "0.431", "inoculated region": 0.0965, "leaf margin": 0.0155, "systemic leaves": 0}